# This is one part of the list. Measured potencies and affinities stand elsewhere. The source made the active and inactive calls. Cut-off read from the data, not from the text of the source: inconclusive = inhibition above about 27% without an active follow-up result; inactive = below that.
# Experiment: NS1A inhibition, H1N1 influenza, cell based functional assay (AID 504329)
# Details: percent inhibition, at 12.5 µM, active compounds read high
row,Compound,inhibition
1,CCCC1OP(N)(=O)OCC1CC (stereo not given),inactive: 2.52%
2,CC(=O)Nc1ccc([As](=O)(O)O)cc1,inactive: 14.2%
3,O=C(O)c1ccccc1[As](=O)(O)O,inactive: -1.74%
4,O=P(Nc1nc2ccc(Cl)cc2s1)(c1ccccc1)c1ccccc1,inactive: 11.7%
5,CN(C(=O)Cc1ccc(Cl)c(Cl)c1)[C@H]1CCCC[C@@H]1N1CCCC1,inactive: 2.82%
6,Cc1ccc(NP(=O)(Oc2ccccc2F)Oc2ccccc2F)nc1,inactive: -2.2%
7,Cc1cc(SC(NC(=O)c2ccc(F)cc2)C(Cl)(Cl)Cl)ncn1 (stereo not given),inactive: 2.12%
8,CCOP(=O)(Nc1ccccc1)OCC,inactive: -11.2%
9,CCN(N=Nc1nonc1N)c1nonc1N,inactive: 3.05%
10,Nc1cccc2ccc([As](=O)(O)O)cc12,inactive: 3.35%
11,NC(=O)c1cc([N+](=O)[O-])cc([N+](=O)[O-])c1N,inactive: -18.2%
12,Cc1ccc(N/C(=N/P(=O)(N2CCOCC2)N2CCOCC2)N2CCOCC2)cc1,inactive: -3.89%
13,CN(C(=O)Cc1ccc(Cl)c(Cl)c1)[C@H]1CCCC[C@H]1N1CCCC1,inactive: -10.5%
14,COc1ccccc1OP(=O)(Nc1ccc(C)cn1)Oc1ccccc1OC,inactive: -1.88%
15,CN1CCCC(OC(=O)C(c2ccccc2)c2ccccc2)C1 (stereo not given),inactive: 8.85%
16,Clc1ccc(Cl)c(NC2=NCC(CBr)S2)c1 (stereo not given),inactive: -7.81%
17,Nc1cc(N)c2nonc2c1[N+](=O)[O-],inactive: 4.6%
18,CC(C)CC(=O)NC(Sc1ccc(Cl)cc1)C(Cl)(Cl)Cl (stereo not given),inactive: -0.41%
19,O=C(NC(Sc1ccncn1)C(Cl)(Cl)Cl)c1ccccc1 (stereo not given),inactive: -4.39%
20,Oc1ccccc1CNc1ccccn1,inactive: -4.9%
21,COc1ccc(C2=NCC(CBr)S2)cc1 (stereo not given),inactive: -7.73%
22,CC(=O)N1C2C3N(C(C)=O)C1C1N(C(C)=O)C(C(N1C(C)=O)N3C(C)=O)N2C(C)=O,inactive: 7.57%

row,Compound,inhibition
1,O=[N+]([O-])c1cccc2n[nH]nc12,inactive: 4.38%
2,O=[N+]([O-])c1cc([N+](=O)[O-])c(CCNc2ccccc2)c([N+](=O)[O-])c1,inactive: 7.77%
3,CCc1nc2c(n1)c1c(non1O)c1c2no[n+]1[O-],inactive: -1.97%
4,Cc1ccc(NP(=O)(Oc2ccccc2)Oc2ccccc2)nc1,inactive: -5.16%
5,C[N+]1=C2C=CC=CC=C2SC12C([N+](=O)[O-])=CC([N+](=O)[O-])=C[C-]2[N+](=O)[O-] (stereo not given),inactive: 24.6%
6,Nc1ccc([As](=O)(O)c2ccc(N)cc2)cc1,inactive: -1.67%
7,CCN(/C(=N/P(=O)(N1CCOCC1)N1CCOCC1)N1CCOCC1)c1ccc(OC)cc1,inactive: 7.75%
8,CN(C)C(=O)OCCc1n(C)cc[n+]1C,inactive: -4.08%
9,CC(C)=N/N=C(\N)N[N+](=O)[O-],inactive: -0.76%
10,CC1CCN(C(=O)Oc2c(Cl)cc(Cl)c3cccnc23)CC1,inactive: -7.04%
11,O=P1(N(CCCl)CCCl)OCCCS1 (stereo not given),inactive: -0.74%
12,O=C(Nc1cc([As](=O)(O)O)ccc1O)c1ccccc1,inactive: -3.3%
13,CC(C)(C)C(=O)NC(Sc1ccncn1)C(Cl)(Cl)Cl (stereo not given),inactive: 21.9%
14,O=[N+]([O-])c1ncn(CCn2ncnc2[N+](=O)[O-])n1,inactive: 1.52%
15,COC(=O)C1(C)COP(=O)(Nc2ccccc2)OC1 (stereo not given),inactive: -2.13%
16,O=[N+]([O-])c1cccc(NC2=NCC(CBr)S2)c1 (stereo not given),inactive: -0.34%
17,O=C(O)CNc1ccc([As](=O)(O)O)cc1,inactive: -2.49%
18,COc1ccc(N)c([N+](=O)[O-])c1[N+](=O)[O-],inactive: 4.21%
19,CN(C)C1(CNC(=O)c2ccc(Cl)c(S(N)(=O)=O)c2)CCCCC1,inactive: -17.3%
20,O=P(Nc1ccccn1)(c1ccc(Br)cc1)c1ccc(Br)cc1,inactive: 2.97%
21,C[C@H]1OP(=O)(Oc2ccccc2)[C@H](O)[C@H](O)[C@H]1N=[N+]=[N-] (stereo not given in full),inactive: -18.8%
22,O=P(Nc1nc2ccccc2s1)(c1ccccc1)c1ccccc1,inactive: -15.2%

row,Compound,inhibition
1,O=[N+]([O-])c1ncn(CCn2cnc([N+](=O)[O-])n2)n1,inactive: 2.97%
2,CC(=O)NC(SC(=S)N(C)C)C(Cl)(Cl)Cl (stereo not given),inactive: -5.94%
3,O=[N+]([O-])c1ccc(O)c(/C=N/Nc2ccc([N+](=O)[O-])cc2[N+](=O)[O-])c1,inactive: 17%
4,O=[As](O)(c1ccccc1)c1ccc(O)cc1,inactive: 13.2%
5,C(Cc1nn[nH]n1)Cc1nn[nH]n1,inactive: -1.32%
6,Nc1ccc([As](=O)(O)c2ccc([N+](=O)[O-])cc2)cc1,inactive: -5.53%
7,O=C(OC1CN2CCC1CC2)c1cccc(Cl)c1 (stereo not given),inactive: -7.15%
8,O=P(Nc1nccs1)(c1ccccc1)c1ccccc1,inactive: -9.27%
9,CC(C)C(=O)NC(Sc1ccccc1)C(Cl)(Cl)Cl (stereo not given),inactive: -1.5%
10,c1nnnn1CCn1cnnn1,inactive: 4.36%
11,CCOc1ccc(C2=NCC(CBr)S2)cc1 (stereo not given),inactive: 3.84%
12,O=P1(Nc2nc3ccc(Cl)cc3s2)COc2ccccc2O1 (stereo not given),inactive: 10.8%
13,CCc1cc(O)c([N+](=O)[O-])c(C)c1[N+](=O)[O-],inactive: -18.3%
14,CC(C)(C)C(=O)NC(Sc1ccccc1)C(Cl)(Cl)Cl (stereo not given),inactive: -5.87%
15,COC(=O)C1(C)COP(=O)(NCc2ccccc2)OC1 (stereo not given),inactive: -0.37%
16,CC(=O)c1ccc(N2CC2c2ccncc2)cc1 (stereo not given),inactive: 18.7%
17,N#C/C(=C\c1ccc(N(CCBr)CCBr)cc1)C(N)=O,inactive: -17.1%
18,C[C@H]1OP(=O)(Oc2ccccc2)C[C@@H]2O[C@@H]21 (stereo not given in full),inactive: -21.1%
19,C[C@@H]1C=CCP(=O)(Oc2ccccc2)O1 (stereo not given in full),inactive: -5.95%
20,Cc1ccccc1CN(C)C(=O)COC(=O)C(O)(c1ccccc1)c1ccccc1,inactive: -5.46%
21,CC(=O)Nc1ccc(Oc2c([N+](=O)[O-])cc([N+](=O)[O-])cc2[N+](=O)[O-])cc1,inactive: -6.72%

# Source: PubChem BioAssay AID504329 (Southern Research Specialized Biocontainment Screening …, 2011)
